Measured values from PubChem BioAssay AID2306 (GlaxoSmithKline (GSK), 2010).
This is a selection; strong and weak results do not stand in their true shares. Calls of active or inactive are those of the source. How the calls were made is not given here.

Experiment: inhibition of 3D7 malaria parasite growth – strain 3D7 (AID 2306);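 further: 0% = DMSO wells and 100% = chloroquine plus artemisinin control wells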
Conditions: P. falciparum 3D7 erythrocytic growth, LDH absorbance, 72 h; at 2 µM; hits give high values
For `Cn1c(=O)n(C2CCN(CCCC(c3ccc(F)cc3)c3ccc(F)cc3)CC2)c2ccccc21`, the growth inhibition was active: 92%. With `CC(C)(C)c1cc2cc(N(C(=O)c3ccc(C(F)(F)F)cc3)C3CCN(Cc4ccccc4)CC3)ccc2[nH]1` the growth inhibition was active: 90%.
